# In PubChem BioAssay AID1117362 (Southern Research Institute, 2015):
# This is a selection; strong and weak results do not stand in their true shares. Calls of active or inactive are those of the source.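 How the source made its calls: active means inhibition above 30% at one or more concentrations, seen consistently on every test date; inconclusive means results that disagree between repeat test dates; inactive means the rest.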
# Test: GST-antibody interaction or FRET quenching – biochemical, TR-FRET, artefact control for Vif-APOBEC3G degradation inhibitor project, dose response (AID 1117362);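 further: biotinylated GST protein used in place of GST-Vif 1-94 and biotin-A3G peptide; detects fluorescence quenchers or blockers of GST binding to anti-GST antibody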
# Conditions: TR-FRET counter screen, biotin-GST/anti-GST signal; at 100 µM (top of the series)
row,Structure (SMILES),inhibition
1,O=[N+]([O-])c1cccc(NC2=NCC(CBr)S2)c1 (stereo unspecified),inactive: 2.48%
